Test system: elongation factor-2 (EF-2)

| Substance | Relative Activity (IVTT) (ratio (IC50 WT / IC50 variant)) | Relative IVTT score (ratio (IC50 WT / IC50 mutant)) |
| --- | --- | --- |
| null construct DT382(G53E) (no sequence given) | 0.43 | 0.43 |
| wild type DT382 (truncated diphtheria toxin, […] of DT387) (no sequence given) | 1 | – |

From patent US20090041797
